The text below walks through data of article PMC9718554, “Discovery of a fragment hit compound targeting D-Ala:D-Ala ligase of bacterial peptidoglycan biosynthesis” (Journal of Enzyme Inhibition and Medicinal Chemistry, 2022).

Data set [1] can be described thus: HRP-PR redox activity assay (H2O2). The settings on record: for HRP-PR assay activity flag: 100 μM compound, with or without 1 mM DTT.
Data set [2] in a line: H2DCFDA redox activity assay (ROS). As to conditions: for H2DCFDA assay activity flag: 100 μM compound, with or without 100 μM TCEP.
A short description of data set [3]: Resazurin redox activity assay (free radicals). The settings on record: for Resazurin assay activity flag: with 100 μM DTT. (In general: Alamar Blue is a resazurin reagent that responds to reducing activity.)
Data set [4] can be described thus: Phosphate-binding assay (malachite green, no enzyme). The settings on record: at 5 mM.
A short description of data set [5]: Thiol reactivity assay (reduced DTNB, TNB2- depletion). The settings on record: 100 μM compound, 37 °C, 12 h.

For the compound `Cc1cccc(-c2ccnc3c(C(=O)O)cnn23)c1` [Compound 3, 7-(m-Tolyl)pyrazolo[1,5-a]pyrimidine-3-carboxylic acid], in data set [1], the “HRP-PR assay activity flag” value is listed as “Not active”. Further, the “HRP-PR assay absorbance relative to DMSO blank” value in data set [1] (1 mM DTT) is on record as 1.0; in data set [1] (Redox-free), 1.1. Also, the “H2DCFDA assay fluorescence relative to DMSO blank” value in data set [2] (100 µM TCEP) came out at 1.0; in data set [2] (Redox-free) it was 1.1. The “H2DCFDA assay activity flag” value in data set [2] is listed as “Not active”. Besides, the “Resazurin assay fluorescence relative to DMSO blank” value in data set [3] (1 µM cpd) came to 1.1; in data set [3] (10 µM cpd), 1.0. Also, the “Resazurin assay activity flag” value in data set [3] is listed as “Not active”. The “Phosphate binding, free phosphate” value in data set [4] is 111% free phosphate at 5 mM. Moreover, the Thiol reactivity result in data set [5] was “Not reactive”.
With `COc1ccc(-n2c(C)ccc2C)nc1` [Compound 4], the “HRP-PR assay activity flag” value in data set [1] is recorded as “Not active”. The “HRP-PR assay absorbance relative to DMSO blank” value in data set [1] (1 mM DTT) worked out at 1.0; in data set [1] (Redox-free), 0.8. The “H2DCFDA assay fluorescence relative to DMSO blank” value is recorded as 1.9 in data set [2] (100 µM TCEP) and 3.4 in data set [2] (Redox-free). In addition, the “H2DCFDA assay activity flag” value in data set [2] is recorded as “Active”. Also, the figures for the “Resazurin assay fluorescence relative to DMSO blank” value in data set [3] (1 µM cpd) and in data set [3] (10 µM cpd) were 1.1 and 2.3, respectively. Moreover, the “Resazurin assay activity flag” value in data set [3] was “Active”. For the same compound, in data set [4], the “Phosphate binding, free phosphate” value is given as 29% free phosphate at 5 mM. Also, the Thiol reactivity entry in data set [5] was “Reactive”.
For `Cc1noc(C)c1C(=O)NCC1Cn2cccc2CN1C` (stereo not drawn) [Compound 5], the “HRP-PR assay activity flag” value in data set [1] is “Not active”. The “HRP-PR assay absorbance relative to DMSO blank” value in data set [1] (1 mM DTT) is listed as 1.0; in data set [1] (Redox-free) it was 0.9. The “H2DCFDA assay fluorescence relative to DMSO blank” value was 2.4 in data set [2] (100 µM TCEP) and 3.9 in data set [2] (Redox-free). For the same compound, the “H2DCFDA assay activity flag” value in data set [2] was “Active”. The figures for the “Resazurin assay fluorescence relative to DMSO blank” value in data set [3] (1 µM cpd) and in data set [3] (10 µM cpd) were 1.0 and 1.1, respectively. Moreover, the “Resazurin assay activity flag” value in data set [3] is on record as “Not active”. Further, the “Phosphate binding, free phosphate” value in data set [4] was found to be 10% free phosphate at 5 mM. Besides, the Thiol reactivity result in data set [5] is given as “Not reactive”.
Turning to `CCOc1ccc2c(n1)CCN(C(=O)c1ccccn1)C2` [Compound 6, (2-Ethoxy-7,8-dihydro-1,6-naphthyridin-6(5H)-yl)(pyridin-2-yl)methanone], the “HRP-PR assay activity flag” value in data set [1] is “Not active”. Besides, the “HRP-PR assay absorbance relative to DMSO blank” value in data set [1] (1 mM DTT) is given as 1.0; in data set [1] (Redox-free), 0.9. Further, the “H2DCFDA assay fluorescence relative to DMSO blank” value was 1.1 in data set [2] (100 µM TCEP) and 1.3 in data set [2] (Redox-free). Further, the “H2DCFDA assay activity flag” value in data set [2] is “Not active”. For the same compound, the “Resazurin assay fluorescence relative to DMSO blank” value in data set [3] (1 µM cpd) is given as 1.3; in data set [3] (10 µM cpd), 4.3. Also, in data set [3], the “Resazurin assay activity flag” value was “Active”. Also, in data set [4], the “Phosphate binding, free phosphate” value was found to be 23% free phosphate at 5 mM. The Thiol reactivity entry in data set [5] is listed as “Not reactive”.
Take `Nc1ccc2ncc(C(=O)O)c(O)c2c1` [Compound 7, 6-Amino-4-hydroxyquinoline-3-carboxylic acid]: the “HRP-PR assay activity flag” value in data set [1] was “Not active”. The entries for the “HRP-PR assay absorbance relative to DMSO blank” value in data set [1] (1 mM DTT) and in data set [1] (Redox-free) were 1.0 and 0.9, respectively. Besides, the “H2DCFDA assay fluorescence relative to DMSO blank” value is 2.1 in data set [2] (100 µM TCEP) and 1.4 in data set [2] (Redox-free). Further, the “H2DCFDA assay activity flag” value in data set [2] is listed as “Not active”. Besides, the “Resazurin assay fluorescence relative to DMSO blank” value is recorded as 1.0 in data set [3] (1 µM cpd) and 1.1 in data set [3] (10 µM cpd). Besides, the “Resazurin assay activity flag” value in data set [3] was “Not active”. For the same compound, the “Phosphate binding, free phosphate” value in data set [4] is reported as 89% free phosphate at 5 mM. For the same compound, the Thiol reactivity entry in data set [5] is “Not reactive”.
In the case of `COCc1cn(C2CNC2)nn1` [Compound 8], the “HRP-PR assay activity flag” value in data set [1] is given as “Not active”. The results for the “HRP-PR assay absorbance relative to DMSO blank” value in data set [1] (1 mM DTT) and in data set [1] (Redox-free) were 1.0 and 0.8, respectively. The entries for the “H2DCFDA assay fluorescence relative to DMSO blank” value in data set [2] (100 µM TCEP) and in data set [2] (Redox-free) were 10.6 and 8.0, respectively. In data set [2], the “H2DCFDA assay activity flag” value is “Active”. Besides, the “Resazurin assay fluorescence relative to DMSO blank” value in data set [3] (1 µM cpd) and in data set [3] (10 µM cpd) was 0.9 throughout. Besides, the “Resazurin assay activity flag” value in data set [3] is given as “Not active”. In addition, the “Phosphate binding, free phosphate” value in data set [4] is given as 85% free phosphate at 5 mM. Further, in data set [5], the Thiol reactivity entry is listed as “Not reactive”.
